According to PubChem BioAssay AID504329 (Southern Research Specialized Biocontainment Screening …, 2011):
Some of the results follow. Entries with a potency or affinity are not part of this list. Activity calls are given as the source filed them. No stated cut-off is given here; in the data, inconclusive means inhibition above about 27% without an active follow-up result; inactive means below that.

Assay: NS1A inhibition, H1N1 influenza, cell based functional assay (AID 504329)
Conditions: percent inhibition, at 12.5 µM, active compounds read high

| Structure (SMILES) | inhibition |
| --- | --- |
| CC(=O)Nc1ccc([As](=O)(O)O)c(O)c1 | inactive: 4.11% |
| O=C(NC1CCS(=O)(=O)C1)NP(=S)(Oc1ccccc1)Oc1ccccc1 (centres undefined) | inactive: -6.62% |
| CCNC(=S)/N=C(\N)N[N+](=O)[O-] | inactive: -6.86% |
| O=P1(N(CCCl)CCCl)OCCC2CCCCN21 (centres undefined) | inactive: 8.54% |
| Cc1ccc(OP(=O)(Nc2ccccn2)Oc2ccc(C)cc2)cc1 | inactive: 0.12% |
| CC(=O)NC(SC(=S)N(CC(C)C)CC(C)C)C(Cl)(Cl)Cl (centres undefined) | inactive: 24.4% |
| COC(=O)c1cc2c(s1)N=C(c1ccccc1)N(C)P2(=O)N1CCOCC1 (centres undefined) | inactive: -13.8% |
| CCC(=O)N1C2C3N(C(=O)CC)C1C1N(C(=O)CC)C(C(N1C(=O)CC)N3C(=O)CC)N2C(=O)CC | inactive: 2.35% |
| O=C(OC1CN2CCC1CC2)c1ccccc1 (centres undefined) | inactive: -19.7% |
| O=c1c2cc([N+](=O)[O-])ccc2[nH]c2c([N+](=O)[O-])cc([N+](=O)[O-])cc12 | inactive: -7.38% |
| CN(C)C(=O)Oc1noc2ccccc12 | inactive: -12.8% |
| CC(NC(=O)COC(=O)C(O)(c1ccccc1)c1ccccc1)c1ccccc1 (centres undefined) | inactive: -1.7% |
| Cc1ccccc1OP(=O)(Nc1ccccn1)Oc1ccccc1C | inactive: -1.03% |
| CS(=O)(=O)c1cc([N+](=O)[O-])c2no[n+]([O-])c2c1 | inactive: -8.59% |
| O=P(Nc1nccs1)(Oc1ccccc1)Oc1ccccc1 | inactive: -5.74% |
| O=P(Nc1nccs1)(c1ccccc1)c1nc2ccccc2s1 (centres undefined) | inactive: -14.5% |
| CCOP1(=S)c2c(C)nn(CCC#N)c2N=C(c2ccccc2F)N1C (centres undefined) | inactive: 1.42% |
| O=C(O)COc1ccc([As](=O)(O)O)cc1[N+](=O)[O-] | inactive: -9.07% |
| Nc1ccccc1[As](=O)(O)c1ccccc1 | inactive: 12.8% |
| NC(=O)Nc1ccc([As](=O)(O)O)cc1 | inactive: -19.9% |
| CN(C(=O)Cc1ccc(Cl)c(Cl)c1)[C@H]1CC[C@@]2(CCCO2)C[C@@H]1N1CCCC1 | inactive: -1.58% |
| O=[N+]([O-])c1ccc2c(c1)nnn2O | inactive: 4.39% |

| Structure (SMILES) | inhibition |
| --- | --- |
| CN(C)C(=O)c1cc([N+](=O)[O-])cc2c1-c1c(cc([N+](=O)[O-])cc1[N+](=O)[O-])C2=O | inactive: -11.2% |
| CCOP1(=S)c2c(C)nn(CCC#N)c2N=C(c2ccc(F)cc2)N1C (centres undefined) | inactive: -8.29% |
| CN(C(=O)Cc1ccccc1)[C@@H]1CC[C@]2(CCCO2)C[C@H]1N1CCCC1 | inactive: -0.16% |
| N#CCCN(C(=O)COC(=O)C(O)(c1ccccc1)c1ccccc1)c1ccc(F)cc1 | inactive: -1.15% |
| CS(=O)(=O)c1ccc(Cl)c(NC(=O)COC(=O)C(O)(c2ccccc2)c2ccccc2)c1 | inactive: -11.7% |
| O=[As](O)(O)c1cccnc1 | inactive: -15.9% |
| COc1cc(C(=O)NCC2(N3CCOCC3)CCCCC2)cc(Cl)c1OC(C)C | inactive: 50.5% |
| O=C(OC1CN2CCC1CC2)c1ccc(Cl)cc1 (centres undefined) | inactive: -0.31% |
| Cc1cccc(OCC(=O)OC2CN3CCC2CC3)c1 (centres undefined) | inactive: 6.33% |
| O=[As](O)(c1cccc(O)c1)c1cccc(O)c1 | inactive: 12.5% |
| CCCOP(=S)(Nc1nc(N)cc(=O)[nH]1)OCCC | inactive: -6.77% |
| Nc1cccc2c([As](=O)(O)O)cccc12 | inactive: -16.5% |
| Cc1ccc(NCCc2c([N+](=O)[O-])cc([N+](=O)[O-])cc2[N+](=O)[O-])cc1 | inactive: 25.4% |
| CCOP(=O)(Nc1cccc2ccccc12)OCC | inactive: 11.9% |
| COc1cc(C2NCCC3(OCCO3)C2(C)C)cc(OC)c1OC (centres undefined) | inactive: 1.85% |
| CCOP(=O)(Nc1ccc(C)cn1)OCC | inactive: -8.54% |
| CCOP(=O)(NC(=NC(C)c1ccccc1)NC(C)c1ccccc1)OCC (centres undefined) | inactive: -13.7% |
| CCC1=CC2Cc3nc4ccc(Cl)cc4c(N)c3C(C1)C2 (centres undefined) | inactive: 0.22% |
| O=P1(Nc2ccccn2)COc2ccccc2OC1 | inactive: 8.45% |
| CC(C)(C)C(=O)NC(Sc1ncccn1)C(Cl)(Cl)Cl (centres undefined) | inactive: -16.4% |
| Clc1n[nH]nc1-c1nn[nH][15n]1 | inactive: 1% |
| COc1ccccc1CNC(=O)COC(=O)C(O)(c1ccccc1)c1ccccc1 | inactive: -2.37% |

| Structure (SMILES) | inhibition |
| --- | --- |
| CC1(CBr)Cn2c(nc3ccccc3c2=O)S1 (centres undefined) | inactive: -5.29% |
| CN(C(=O)Cc1ccc(Cl)c(Cl)c1)[C@@H]1CCCC[C@H]1N1CCCC1 | inactive: 3.09% |
| CC(C)/C=N\N=C(\N)N[N+](=O)[O-] | inactive: -7.94% |
| Cc1ccc(C(=O)OC2CN3CCC2CC3)cc1 (centres undefined) | inactive: -1.48% |
| CC1CCC(C(C)C)C(OP(=O)(Nc2ccccn2)c2ccccc2)C1 (centres undefined) | inactive: 14.2% |
| Cc1nn(-c2ccccc2)c2c1P(=O)(N1CCOCC1)N(C)C(c1ccccc1)=N2 (centres undefined) | inactive: -3.32% |
| CCCC1OP(=O)(Nc2ccccc2)OCC1CC (centres undefined) | inactive: -1.35% |
| O=C(/C=C/c1ccccc1)OC1CN2CCC1CC2 (centres undefined) | inactive: -21.9% |
| CN(C)C1(CNC(=O)c2ccc(S(C)(=O)=O)cc2)CCCCC1 | inactive: -0.3% |
| O=P1(Nc2ncccn2)COc2ccccc2OC1 | inactive: 1.56% |
| O=[As](O)(c1cccs1)c1cccs1 | inactive: -1.71% |
| Cc1ccc(OCC(=O)OC2CN3CCC2CC3)cc1 (centres undefined) | inactive: -0.03% |
| NS(=O)(=O)c1cccc(NC(=O)COC(=O)C(O)(c2ccccc2)c2ccccc2)c1 | inactive: -6.09% |
| O=P1(Nc2ccc(Br)cn2)COc2ccccc2OC1 | inactive: -14.1% |
| Nc1cccc([As](=O)(O)c2ccccc2)c1 | inactive: 14.3% |
| CC1CCNP(=O)(N(CCCl)CCCl)O1 (centres undefined) | inactive: 0.03% |
| CCOC(=O)Nc1ccc([As](=O)(O)O)c(O)c1 | inactive: -9.66% |
| Cc1cc(SC(NC(=O)c2ccccc2)C(Cl)(Cl)Cl)nc(C(C)C)n1 (centres undefined) | inactive: -7.32% |
| CCCCOc1ccc(C(=O)NCC2(N3CCCCC3)CCCCC2)cc1OC | inactive: 7.7% |
| CCOC(=O)Nc1cccc([As](=O)(O)O)c1 | inactive: -13.3% |
